# From PubChem BioAssay AID1259309 (ICCB-Longwood Screening Facility, Harvard Medical School, 2017)
# “And” between values parts separate entries of the source, which are not always exact repeats. Identical values can stand only once. Only a part is listed here, and it is no random draw. The source made the active and inactive calls. No stated cut-off is given here; in the data, active means growth inhibition above about 68%; inactive means the rest.
# Assay: growth inhibition of ugtP-null S. aureus, primary screen, RN4220 ugtP deletion, OD600 (AID 1259309);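 further: plate controls were untreated wells for no effect and antibiotic for full effect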
# Settings: 16 h, hits give high values
row,Compound,growth inhibition
1,CC(C)N1C(=O)CC2(CCN(CCOC(=O)C(O)(c3ccccc3)c3ccccc3)CC2)C1=O,inactive: 8.71%
2,CCN(N=Nc1nonc1N)c1nonc1N,inactive: 7.67%
3,CP(=O)(Nc1ccc(Cl)cc1Cl)Oc1ccccc1 (configuration not stated),inactive: -2.6%
4,CCOP(=O)(Nc1ccccc1)OCC,inactive: 2.98%
5,Cc1cc(SC(NC(=O)c2ccc(F)cc2)C(Cl)(Cl)Cl)ncn1 (configuration not stated),inactive: 15%
6,Cc1ccc(NP(=O)(Oc2ccccc2F)Oc2ccccc2F)nc1,inactive: 1.52%
7,COc1ccccc1OP(C)(=O)Nc1ccc(C)c(C)c1 (configuration not stated),inactive: -5.5%
8,CC(C)=NN=C(N)N[N+](=O)[O-],inactive: -3.58%
9,O=C(O)c1ccccc1[As](=O)(O)O,inactive: 7.84%
10,CC(=O)Nc1ccc([As](=O)(O)O)cc1,inactive: 7.48%
11,CCCC1OP(N)(=O)OCC1CC (configuration not stated),inactive: 1.59%
12,CCN(CC)CC(C)C(C)OC(=O)C(O)(c1ccccc1)c1ccccc1 (configuration not stated),inactive: -0.302%
13,O=C1C(O)=C([N+](=O)[O-])C(=O)C(O)=C1[N+](=O)[O-],inactive: 2.02%
14,Cc1cc(C)cc(OP(C)(=O)Nc2cccc(C(F)(F)F)c2)c1 (configuration not stated),inactive: -21.5%
15,O=P(Nc1nc2ccc(Cl)cc2s1)(c1ccccc1)c1ccccc1,inactive: -12.7%
16,CP(=O)(Nc1ccccn1)Oc1ccccc1 (configuration not stated),inactive: 7.95%
17,COc1ccccc1OP(C)(=O)Nc1ccc(C)cc1C (configuration not stated),inactive: 5.12%
18,CCc1ccc(OP(C)(=O)O)cc1,inactive: 16.8%
19,CC(C)CC(=O)NC(Sc1ccc(Cl)cc1)C(Cl)(Cl)Cl (configuration not stated),inactive: -23%
20,O=[N+]([O-])c1cc([N+](=O)[O-])c(Nc2ccccn2)c([N+](=O)[O-])c1,active: 96.3%
21,Cc1c(NP(C)(=O)Oc2ccc(C(C)C)cc2)c(=O)n(-c2ccccc2)n1C (configuration not stated),inactive: 6.38%

row,Compound,growth inhibition
1,Nc1cc(N)c2nonc2c1[N+](=O)[O-],inactive: -2.7%
2,Oc1ccccc1CNc1ccccn1,inactive: 9.94%
3,O=C(NC(Sc1ccncn1)C(Cl)(Cl)Cl)c1ccccc1 (configuration not stated),inactive: 5.88%
4,COc1ccc(OP(C)(=O)Nc2ccccn2)cc1 (configuration not stated),inactive: -4.06%
5,COc1ccccc1OP(=O)(Nc1ccc(C)cn1)Oc1ccccc1OC,inactive: 0.142%
6,Cc1ccc(OP(=O)(Nc2nccs2)Oc2ccc(C)cc2)cc1,inactive: -4.27%
7,Clc1ccc(Cl)c(NC2=NCC(CBr)S2)c1 (configuration not stated),inactive: 1.96%
8,CN(C)CCOC(=O)C(O)(c1ccccc1)C1CCCC1 (configuration not stated),inactive: 2.6%
9,CN1CCCC(OC(=O)C(c2ccccc2)c2ccccc2)C1 (configuration not stated),inactive: 1.8%
10,NC(=O)c1cc([N+](=O)[O-])cc([N+](=O)[O-])c1N,inactive: -1.86%
11,COc1ccccc1OP(C)(=O)Nc1ccc(Br)cc1 (configuration not stated),inactive: -2.48%
12,CN(C)C(=O)c1c([N+](=O)[O-])cc([N+](=O)[O-])cc1[N+](=O)[O-],inactive: 28.5%
13,CN(C(=O)Cc1ccc(Cl)c(Cl)c1)C1CCCCC1N1CCCC1 (configuration not stated),inactive: 2.24% and inactive: 2.49% and inactive: 8.17%
14,CC1CCN(C(=O)Oc2c(Cl)cc(Cl)c3cccnc23)CC1,inactive: -1.64%
15,CC(C)(C)c1ccc(OP(C)(=O)O)cc1,inactive: 2.64%
16,Nc1ccc([As](=O)(O)c2ccc(N)cc2)cc1,inactive: 2.38%
17,COc1ccccc1OP(C)(=O)Nc1ccccc1Br (configuration not stated),inactive: 4.23%
18,C[N+]1=C2C=CC=CC=C2SC12C([N+](=O)[O-])=CC([N+](=O)[O-])=C[C-]2[N+](=O)[O-] (configuration not stated),inactive: 73.7%
19,CP(=O)(Nc1ccc(Cl)cc1)Oc1ccc(F)cc1 (configuration not stated),inactive: -3.16%
20,COc1ccccc1OP(C)(=O)Nc1c(C)n(C)n(-c2ccccc2)c1=O (configuration not stated),inactive: -0.653%
21,O=[N+]([O-])c1cccc2n[nH]nc12,inactive: 10.6%

row,Compound,growth inhibition
1,CC(=O)N1C2C3N(C(C)=O)C1C1N(C(C)=O)C(C(N1C(C)=O)N3C(C)=O)N2C(C)=O,inactive: 0.841%
2,O=C(OCCCN1CCCC1)C(O)(c1ccccc1)C1CCCCC1 (configuration not stated),inactive: 4.72%
3,CP(=O)(Oc1ccccc1)N1CCOC1=O (configuration not stated),inactive: 8.4%
4,Cc1ccc(NP(=O)(Oc2ccccc2)Oc2ccccc2)nc1,inactive: 4.48%
5,CCc1nc2c(n1)c1c(non1O)c1c2no[n+]1[O-],inactive: -14.8%
6,O=[N+]([O-])c1cc([N+](=O)[O-])c(CCNc2ccccc2)c([N+](=O)[O-])c1,inactive: 12.5%
7,CCc1ccc(OP(C)(=O)Nc2cccnc2)cc1 (configuration not stated),inactive: 3.57%
8,CCN(CC)CC(O)COC(=O)C(O)(c1ccccc1)C1CCCCC1 (configuration not stated),inactive: 2.58%
9,COc1ccc(OP(C)(=O)Nc2ccc(Br)cc2)cc1 (configuration not stated),inactive: -12.7%
10,COc1ccc(C2=NCC(CBr)S2)cc1 (configuration not stated),inactive: 1.53%
11,O=[N+]([O-])c1cccc(NC2=NCC(CBr)S2)c1 (configuration not stated),inactive: -1.92%
12,O=C(O)CNc1ccc([As](=O)(O)O)cc1,inactive: 4.82%
13,CC(C)(C)C(=O)NC(Sc1ccncn1)C(Cl)(Cl)Cl (configuration not stated),inactive: 9.8%
14,O=[N+]([O-])c1ncn(CCn2ncnc2[N+](=O)[O-])n1,inactive: 10%
15,O=C(Nc1cc([As](=O)(O)O)ccc1O)c1ccccc1,inactive: 6.18%
16,CP(=O)(OC12CC3CC(CC(C3)C1)C2)OC12CC3CC(CC(C3)C1)C2,inactive: -10.9%
17,Nc1ccc2c(ccc3cccnc32)n1.O=[N+]([O-])c1cc([N+](=O)[O-])c(O)c([N+](=O)[O-])c1,inactive: -1.74%
18,O=P1(N(CCCl)CCCl)OCCCS1 (configuration not stated),inactive: 0.8%
19,O=[N+]([O-])c1ccc(O)c(C=NNc2ccc([N+](=O)[O-])cc2[N+](=O)[O-])c1,inactive: 64.3%
20,Cc1c(C(c2ccc3c(c2)OCO3)c2c(C)n(C)n(-c3ccccc3)c2=O)c(=O)n(-c2ccccc2)n1C.O=[N+]([O-])c1cc([N+](=O)[O-])c(O)c([N+](=O)[O-])c1,inactive: -8.96%
